{"source": "paper PMC6397180", "about": "(Scientific Reports, 2019)", "test_system": "PMA-differentiated THP-1 cells", "experiment": "Confocal microscopy of labeled CPP uptake", "assay_type": "cell-based", "details": "1 μM peptide, 37 °C, 30 minutes, trypsin to strip surface-bound CPP, fluorescence 488 nm", "method": "Approximately 4 × 10^5 THP-1 cells were plated in 35 mm MatTek cover dishes in media containing 10 nM PMA to induce adherence and differentiation. After 48 h the media was changed to RPMI/FBS without PMA. Thirty minutes before adding the labeled-CPPs, cell media were replaced with low serum (1% FBS) RPMI. THP-1 cells were treated with CPP for 30 minutes at 37 °C, washed twice with phosphate buffered saline (PBS) in 10% FBS, and incubated with 0.05% trypsin for 10 minutes to digest any surface-bound CPPs. Cells were washed twice with PBS/FBS and then incubated for 20 minutes in Hank’s Buffered Salt Solution (HBSS) with 1X diluted WGA-633 cell membrane stain (Life Technologies). […] Cells were imaged using a Leica SP8 Confocal Microscope and collected fluorescence data from 405 nm (DAPI stained cell nuclei), 488 nm (internalized labeled-CPP signal), and 633 nm (WGA-633 stained plasma membrane) channels as a series of Z-stacks. Analysis of cells with red and green fluorescence was conducted using Image J. The perimeter of each cell was circled using the red stain as a guide. Subsequently, mean intensity of green fluorescence contained in each cell was measured. For each condition, three random fields of view were analyzed. For control, R57 and S57, a total of 146, 81 and 119 cells were analyzed.", "data": [{"sequence": "DAEFRHDSGY [CPP-control, control peptide of the same length derived from human β-amyloid, same fluorescent label, reference compound]", "values": [{"measurement": "internalization of labeled peptide (confocal microscopy)", "result": "background levels of uptake"}]}]}
